Human monoclonal antibodies against the spike receptor-binding domain (heavy:light variable regions). IC50 against pseudoviruses bearing the spike of naturally observed variants; lower = stronger; >10 µg/ml means not reached at the top dose. No active / inactive call. The stated detection limit is 0.0005 µg/ml; values near or below 0.001 µg/ml lie at the floor of the assay. Bounds are passed on as bounds.

The labels stand for the following.
B1: BD55-1346 (protein)
chain 1: EVQMVESGGGLVQPGGSLRLSCAVSGFTVTRNYMSWVRQTPGRGLEWVSIIYPGGSTFYADSVKGRFTISRDNSNNTLFLQMNSLRIEDTAVYYCAREYRGHSWGQGTLVTVSS
chain 2: DIQMTQSPSSLSASVGDRVTITCQASQGITNTLNWFQQKPGKAPKLLIYDASNLDSGVPSRFSGSGYGTDFTFTISSLQPEDIATYFCQQYDNLPITFGPGTKVNI
B2: BD55-6729 (protein)
chain 1: QVQLVQSGAEVKKPGTSMRVSCKASGYTFSTYGIIWVRQAPGQGLEWMGWISPHNGDPNYAQKFQGRVTMTIDTSTTTASLEVRSLRSDDSAVYFCARQLLFFGDLSGDNGMDVWGQGTAVTVS
chain 2: SYELTQPPSVSVSPGQTARITCSGDAVATQFLYWYQQKSGQAPVMVIYKDTKRPSGIPERFSATRSGKTVSLIISGVQAEDEADYYCQSADSRGVVFGGGTKLTVL
B3: BD55-6727 (protein)
chain 1: QVQLVESGGGLVKPGGSLRLSCAASGFTFSDYYMNWIRQAPGKGLEWLSYISSGGGTISYADSVKGRFTISRDNAKNSLYLQMNSLGAEDTAVYYCASDPGGLSELAAEYFHHWGQGTLVTVSS
chain 2: DIQMTQSPSSLSASVGDRVTITCRASQSISNYLNWYQQKPGKAPKLLIYAASSLQSGVPSRFSGSGSETDFTLTISSLQSEDFATYYCQQSHSTPYTFGQGSKLEIK
B4: BD55-6723 (protein)
chain 1: QVTLKESGPVLVKPTETLTLTCTVSGFSLSDARMGVSWIRQPPGKALEWLGHIFSNDDKSYNTSLKSRLTISKDTSRSQVVLTMTNMDPVDTATFYCARVEGFWSGSYYYYNMDVWGKGTTVTVSS
chain 2: EIVLTQSPATLSLSPGERATLSCRASQSVNNYLAWYQKKPGQAPRLLIYGASNRATGIPARFSGSGSGPDFTLTISSLEPEDFAVYYCQQRSDWPLIFTFGPGTKLDIK
B5: BD55-1391 (protein)
chain 1: QVQLQESGPGLVRPSQTLSLTCNASGVSISGGGYYWSWIRQHPGKGLEWIGYIHYSGNTYYNPSLKSRVSISVDASKNQFSLRLSSVTAADTAVYYCARVGDFDWLDYWGQGTLVTVSS
chain 2: EIVLTQSPATLSLSPGERATLSCRASQSIGSYLAWFQQKPGQAPRLLIYDASYRATGIPARFSGSGSGTDFTLTISSLEPDDFAIYHCQQRFNWPPITFGQGTRLEIK
B6: BD55-6724 (protein)
chain 1: QVQLVQSGAEVKKPGASVKVSCKASGYTFSNYYIHWVRQAPGQGLEWMGIINPSGGRASYAQKFQDRVTMTRDTSTSTVYMGLSSLRSEDTAVYYCARDFVRIGVATFPDYFDYWGQGTLVTVSS
chain 2: DIQLTQSPSSLSASVGDRVTITCRASQYMNNYLNWYQQKPGKAPKLLIYAASSLQSGVPSRFSGSGSGTDFTLTISSLQPEDFATYYCQQSYITPPYTFGQGTRLEIK
B7: BD55-1343 (protein)
chain 1: QVQLQESGPGVVKPSETLSLTCTVSAYSISSGYFWGWIRQPPGKGLEWIGSIYHTGSTYYNPSLKSRVTISLDTSKNQFSLNLSSVTAADTAMYYCVRDTEDGAEYWFDPWGQGTLVTVSS
chain 2: DIQMTQSPSSVSASVGDRVTITCRASQGITSWLAWYQQKPGKAPKLLIYGASSLQSGVPSRFSGSGFGTDFTLTINTLQPEDFATYYCQQAHGFPRTFGQGTKVEIK
B8: BD55-6722 (protein)
chain 1: EVQLVESGGGLTQPGGSLRLSCVASGFIFSDYDMHWVRQAPGKGLEWVSAIGTAGDTYYPASVKGRFTVSRDNGKHLLHLQMSSLTAGDTAVYYCVRVPMIRGDHYGMDVWGRGTTVTVSS
chain 2: SYELTQPPSVSVSPGQTARIACSGDALPRQYASWYQQKPGQAPVLIIYKDTERPSGIPERFSASSSGTTVTLSISGVQTEDEADYYCQSADSGFVVFGGGTKLTVL
B9: BD55-6718 (protein)
chain 1: QAQLVQSGSELKKPGASVKVSCKASGYTFANYAMHWVRQAPGQGLEWMGWISTNTGNPTYGQDFTGRFVFSLDTSVSTAYLQISSLKAEDTAVYYCARGDRNYFGYEASDIWGQGTMVTVSS
chain 2: DIQLTQSPPSLSASVGDRVTITCRASQSISNYLNWYQQKPGKAPNLLIYAASSLQTGVPSRFSGSGSGTDFSLTISSLQPEDFATYYCQQSYSSHLFTFGGGTKVEI
B10: BD55-6721 (protein)
chain 1: EVQLVESGGGLVQPGGSLRLSCTASGFTFSNYAMHWVRQAPGKGLEFVSSIVSNGVGTFYAKSVQGRFTVSRDNSKNTMYLQMASLTTEDMAVYYCAREHSAYYLAFDYWGQGALVIVSS
chain 2: DIQMTQSPSSLSASVGDRVTITCRASQSISRYLNWYQQKQGKAPKLLIHAASNLQSGVPSRFSGSGSGTDFTLTISSLQPEDFATYFCQQSYTTPQYTFGQGTKLEIK
B11: BD55-1332 (protein)
chain 1: QVQLVQSGAEVKKPGASMKVSCKASGYTFTHYYIHWVRQAPGQGLEWMGIINPDGGSTTYAQKFQGRVTMTTDTSTSTVYMDLSSLRSDDTAVYYCARGGSPPHVRGAMDVWGQGTTVTVSS
chain 2: DIQMTQSPSSLSASVGDRVTITCRASQSVNRNLNWYQQKPGRAPKLLIYAASSLENGVPSRFSGSGSGTDFTLTISSLQPEDFATYYCQQSYSISMHTFGQGTKLEIK
B12: BD55-1334 (protein)
chain 1: QVQLVESGGDLVKPGGSLRLSCATSGFTFSDYFVSWFRQAPGKGLEWISYIGHSGGSIFYADSVKGRFTISRDNAKNSLYLQMNSLRAEDTAVYYCARGDTYSYDTTGYSYWGQGTLVTVSS
chain 2: QSALTQPPSASGSPGQSVTISCTGTSSDVGAYNYVSWYQQHPGKVPKLIMYEVTKRPSGVPDRFSGSKSGNTASLTVSGLQAEDEADYYCSSHAGSNNYVLFGGGTKLTVL
B13: BD55-1339 (protein)
chain 1: QVQLVQSGAEVKKPGASVKVSCKASGYSFSNHYINWVRQAPGQGLEWMGIINPSGGSTTYAQKFQGRVIMTRDTSTSTVYMELRSLRSDDTAVYFCARDRRYLDWYPSNYFDLWGQGTLVTVSS
chain 2: DIQMTQSPSSLSASVGDRVTLTCRASQNIDNWLAWYQQKPGKAPKLLIYAASTLETGVPSRFSGSGSGTDFTLTISSLQPEDFATYYCQHADSFPPFGGGTKVEIR

In the first assay the target is SARS-CoV-2 Omicron BA.1 spike pseudovirus. Description: pseudovirus neutralization IC50; higher = weaker neutralization. The procedure:
(§1)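 Single-round VSV luciferase pseudovirus mixed with antibody dilutions for 1 h and put on Huh-7 cells for about a day; IC50 from the dose curve.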
B1: the “pseudovirus neutralization IC50” value was determined as 0.0968 µg/mL.
Take B2: the “pseudovirus neutralization IC50” value was more than 10 µg/mL.
For the molecule B3, the “pseudovirus neutralization IC50” value came out at 4.37 µg/mL.
The same measure, in the same setting: then B4, with 0.186 µg/mL.
On the same count and under the same terms, then B5, with more than 10 µg/mL; and B6, with more than 10 µg/mL.
Still for that read-out and setting: the figure for B7 is more than 10 µg/mL; for B8 it is more than 10 µg/mL; for B9 it is more than 10 µg/mL.
Consider B10, for which the “pseudovirus neutralization IC50” value was more than 10 µg/mL.
The same measure, in the same setting: then B11, with more than 10 µg/mL; and B12, with more than 10 µg/mL; and B13, with 0.0376 µg/mL.

For another assay, the target named is SARS-CoV-2 Omicron BA.2 spike pseudovirus. The assay is described as above. The method, then: as §1
As to B1, the “pseudovirus neutralization IC50” value amounted to 0.0841 µg/mL.
Still for that read-out and setting: then B2, with more than 10 µg/mL.
Still for that read-out and setting: then B3, with more than 10 µg/mL; and B4, with 0.151 µg/mL; and B5, with more than 10 µg/mL.
As for B6, the “pseudovirus neutralization IC50” value is more than 10 µg/mL.
For B7, the “pseudovirus neutralization IC50” value was more than 10 µg/mL.
Regarding B8, the “pseudovirus neutralization IC50” value was more than 10 µg/mL.
For the molecule B9, the “pseudovirus neutralization IC50” value was more than 10 µg/mL.
Same read-out and setting: then B10, with more than 10 µg/mL.
Same read-out and setting: then B11, with more than 10 µg/mL.
On the same count and under the same terms, then B12, with more than 10 µg/mL; and B13, with 0.0612 µg/mL.

Another assay addresses SARS-CoV-2 Omicron BA.2.75 spike pseudovirus. Described as above. The method, then:
as §1
Take B1: the “pseudovirus neutralization IC50” value was more than 10 µg/mL.
The same measure, in the same setting: the figure for B2 is more than 10 µg/mL; for B3 it is more than 10 µg/mL.
Regarding B4, the “pseudovirus neutralization IC50” value worked out at 1.25 µg/mL.
The same measure, in the same setting: the figure for B5 is more than 10 µg/mL; for B6 it is more than 10 µg/mL.
Regarding B7, the “pseudovirus neutralization IC50” value is more than 10 µg/mL.
The same measure, in the same setting: the figure for B8 is more than 10 µg/mL; for B9 it is more than 10 µg/mL.
The same measure, in the same setting: then B10, with more than 10 µg/mL; and B11, with more than 10 µg/mL; and B12, with more than 10 µg/mL.
B13: the “pseudovirus neutralization IC50” value is 0.0324 µg/mL.

The target of another assay is SARS-CoV-2 Omicron BA.5 spike pseudovirus. The assay is described as above. The procedure: as §1
For B1, the “pseudovirus neutralization IC50” value is 0.0538 µg/mL.
On the same count and under the same terms, then B2, with more than 10 µg/mL; and B3, with more than 10 µg/mL; and B4, with 0.279 µg/mL.
Regarding B5, the “pseudovirus neutralization IC50” value is more than 10 µg/mL.
The same measure, in the same setting: then B6, with more than 10 µg/mL.
The same measure, in the same setting: the figure for B7 is more than 10 µg/mL.
On the same count and under the same terms, the figure for B8 is more than 10 µg/mL.
B9: the “pseudovirus neutralization IC50” value was more than 10 µg/mL.
For B10, the “pseudovirus neutralization IC50” value was more than 10 µg/mL.
In the case of B11, the “pseudovirus neutralization IC50” value is more than 10 µg/mL.
Turning to B12, the “pseudovirus neutralization IC50” value is more than 10 µg/mL.
For the molecule B13, the “pseudovirus neutralization IC50” value was 0.0697 µg/mL.

The target in a further assay is SARS-CoV-2 Omicron BQ.1.1 spike pseudovirus. Described as above. The method, then: as §1
Consider B1, for which the “pseudovirus neutralization IC50” value is more than 10 µg/mL.
As for B2, the “pseudovirus neutralization IC50” value is more than 10 µg/mL.
On the same count and under the same terms, then B3, with more than 10 µg/mL; and B4, with 0.289 µg/mL.
On the same count and under the same terms, the figure for B5 is more than 10 µg/mL.
On the same count and under the same terms, the figure for B6 is more than 10 µg/mL; for B7 it is more than 10 µg/mL; for B8 it is more than 10 µg/mL.
Consider B9, for which the “pseudovirus neutralization IC50” value is more than 10 µg/mL.
Regarding B10, the “pseudovirus neutralization IC50” value was more than 10 µg/mL.
As for B11, the “pseudovirus neutralization IC50” value is more than 10 µg/mL.
Same read-out and setting: the figure for B12 is more than 10 µg/mL.

The target in the next assay is SARS-CoV-2 Omicron XBB spike pseudovirus. The description is as above. The procedure: as §1
As for B1, the “pseudovirus neutralization IC50” value is more than 10 µg/mL.
The same measure, in the same setting: the figure for B2 is more than 10 µg/mL; for B3 it is more than 10 µg/mL; for B4 it is more than 10 µg/mL.
The same measure, in the same setting: then B5, with more than 10 µg/mL; and B6, with more than 10 µg/mL.
Same read-out and setting: then B7, with more than 10 µg/mL.
Take B8: the “pseudovirus neutralization IC50” value was more than 10 µg/mL.
Same read-out and setting: then B9, with more than 10 µg/mL; and B10, with more than 10 µg/mL; and B11, with more than 10 µg/mL.
As to B12, the “pseudovirus neutralization IC50” value is more than 10 µg/mL.

The next assay addresses SARS-CoV-2 early D614G spike pseudovirus. The assay is described as above. The procedure: as §1
In the case of B1, the “pseudovirus neutralization IC50” value was found to be 0.0312 µg/mL.
As to B2, the “pseudovirus neutralization IC50” value was more than 10 µg/mL.
With B3, the “pseudovirus neutralization IC50” value is 0.293 µg/mL.
As to B4, the “pseudovirus neutralization IC50” value amounted to 0.00514 µg/mL.
Still for that read-out and setting: then B5, with more than 10 µg/mL.
The same measure, in the same setting: then B6, with more than 10 µg/mL.
The same measure, in the same setting: the figure for B7 is 1.43 µg/mL; for B8 it is more than 10 µg/mL; for B9 it is more than 10 µg/mL.
With B10, the “pseudovirus neutralization IC50” value was more than 10 µg/mL.
In the case of B11, the “pseudovirus neutralization IC50” value is more than 10 µg/mL.
In the case of B12, the “pseudovirus neutralization IC50” value was found to be 0.001 µg/mL.
The same measure, in the same setting: the figure for B13 is 0.0137 µg/mL.

The record behind these values is the supplement of paper PMC9931576.
